Anti-infective test results gathered from many reports (values: NIAID ChemDB through PubChem).

All rows: toxicity to cultured cells; cells: Vero cells; read-out: CC50

CCn: concentration that lowers growth or viability of the cells by n%.

structure,read by,value
COc1ccc(Cn2ccc3c(-c4ccco4)nccc32)cc1,-,12 µM
O=c1oc(C#Cc2ccccc2)ns1,ATP,21 µM
CC1=CC[C@]2(C)CC[C@]3(C(=O)O)[C@@H](C(C)C)CC[C@H]3[C@@H]2C=C1,fluorescence,18.2 µM
COc1ccc(Nc2ncnc3c(=N)n(NC(C)=O)cnc23)cc1,-,46.52 µg/mL
COc1ccc(Cn2ccc3c(-c4ccco4)nc(Cl)cc32)cc1,-,58 µM
CC(=O)Nn1cnc2c(Nc3ccc(C#N)cc3)ncnc2c1=N,-,42.1 µg/mL
O=C(Nc1nnc(-c2ccc3c(c2)CCCC3)o1)c1ccc(CC=S)cc1,luminescence,26.52 µg/mL
Clc1ccc2c(NCCn3cc(COc4ccc5ccccc5c4)nn3)ccnc2c1,neutral red,>12 µM
Cc1ccc(C)n1-c1ccc(C(=O)NN2C(=O)c3c(F)c(F)c(F)c(F)c3C2=O)cc1,MTT,260 µM
C=Cc1ccc(C(=O)Nc2nnc(-c3ccc4c(c3)CCCC4)o2)cc1,luminescence,>40 µg/mL
COc1cc2c(cc1/C=C/C(=O)c1ccc(Br)cc1)C1CC[C@@]3(C)C(CC[C@@H]3O)C1CC2,neutral red,79.96 µM
CCc1ccc(/C=C/c2nsc(=O)o2)cc1,ATP,17 µM
Cc1ccc(C)n1-c1nc(-c2ccc([N+](=O)[O-])cc2)cs1,MTT,253 µM
COc1cc2c(cc1/C=C/C(=O)c1ccc(C)cc1)C1CC[C@@]3(C)C(CC[C@@H]3O)C1CC2,neutral red,29.86 µM
CC(C)(C)NC(=O)CN(C(=O)[C@H]1CC[C@@]2(C)C3CC=C4C[C@@H](O)CC[C@]4(C)C3CC[C@]12C)c1ccc(Cl)cc1,crystal violet,228 µM
O=C(NN1C(=O)c2c(Cl)c(Cl)c(Cl)c(Cl)c2C1=O)c1ccc(-n2cccc2)cc1,MTT,259 µM
O=c1oc(-c2cccc(F)c2)ns1,ATP,21 µM
COc1cc2c(cc1/C=C/C(=O)c1ccc(C)cc1C)C1CC[C@@]3(C)C(CC[C@@H]3O)C1CC2,neutral red,15.09 µM
CC(C)[C@H]1CC[C@H]2[C@@H]3C=C[C@]4(C)CC[C@@]3(CC[C@]12C(=O)O)CO4,fluorescence,255.9 µM
CN(C)c1cc2nc(C3CCCCC3)[nH]c2cc1NC(=O)c1ccc(OC(F)(F)F)cc1F,-,>200 µg/mL
Cc1ccc(C)n1-c1nc(-c2ccc(Cl)cc2Cl)cs1,MTT,221 µM
N#Cc1ccc(Nc2ncnc3c(=N)n(NC(=O)c4ccncc4)cnc23)cc1,-,17.2 µg/mL
CC(=O)OC[C@]12CC[C@@]3(C)CC=C(C)C=C[C@H]3[C@@H]1CC[C@@H]2C(C)C,fluorescence,196.4 µM
Cc1ccc(C)n1-c1ccc(C(=O)NN2C(=O)c3c(Cl)c(Cl)c(Cl)c(Cl)c3C2=O)cc1,MTT,252 µM

Blank or dashed fields: not listed here. Neighbouring rows are from separate reports.